Taken from: PubChem BioAssay AID624099 (ICCB-Longwood, 2012)
Here is a random part of about 21,000 reagents tested. Over the whole deposit, 497 (2.4%) are marked active. 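Higher z means weaker E2 silencing; only reporter increases were scored, and knock-downs that hurt cell survival may mask genuine repressor factors.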 Entries without a mark were called inactive. Reagents against one gene are numbered here. Reagent sequences are not shown.

Assay: 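Human genes that papillomavirus E2 requires to repress the HPV18 LCR promoter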 (primary screen)
System: human C33A cervical carcinoma cells (HPV-negative) stably expressing BPV1 E2 and an HPV18 LCR luciferase reporter
Reagents: siRNA pool against human genes, 40 nM
Time to read-out: 72 h
Measured: 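Per-well luciferase luminescence, z-scored on each plate against the plate mean and SD with control wells left out, then averaged across three replicate plates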
Direction: mean z-score and z-score: higher = stronger reporter signal, weaker E2 silencing
Active means: 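Hit if mean z-score reaches 2 and two or more of three replicate z-scores also reach 2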

{"gene":"ZBTB32","pool no.":1,"mean z-score":"2.06 (active)","z-score, replicate A":2.54,"z-score, replicate B":1.45,"z-score, replicate C":2.19}
{"gene":"WASF2","pool no.":1,"mean z-score":0.05,"z-score, replicate A":0.15,"z-score, replicate B":0.04,"z-score, replicate C":-0.02}
{"gene":"PRDM11","pool no.":1,"mean z-score":-0.06,"z-score, replicate A":0.4,"z-score, replicate B":-0.15,"z-score, replicate C":-0.43}
{"gene":"LOC400865 (retired record)","pool no.":1,"mean z-score":0.86,"z-score, replicate A":0.81,"z-score, replicate B":0.58,"z-score, replicate C":1.19}
{"gene":"CNGB1","pool no.":1,"mean z-score":-0.05,"z-score, replicate A":-0.12,"z-score, replicate B":-0.22,"z-score, replicate C":0.2}
{"gene":"PLCH1","pool no.":1,"mean z-score":1.36,"z-score, replicate A":1.32,"z-score, replicate B":1.29,"z-score, replicate C":1.46}
{"gene":"NCOA7","pool no.":1,"mean z-score":-0.21,"z-score, replicate A":0.02,"z-score, replicate B":-0.24,"z-score, replicate C":-0.41}
{"gene":"CLDN19","pool no.":1,"mean z-score":-0.45,"z-score, replicate A":-0.74,"z-score, replicate B":-0.51,"z-score, replicate C":-0.09}
{"gene":"APIP","pool no.":1,"mean z-score":1.39,"z-score, replicate A":1.25,"z-score, replicate B":1.74,"z-score, replicate C":1.19}
{"gene":"BST1","pool no.":1,"mean z-score":0.38,"z-score, replicate A":0.51,"z-score, replicate B":0.21,"z-score, replicate C":0.43}
{"gene":"HEPHL1","pool no.":1,"mean z-score":0.29,"z-score, replicate A":0.28,"z-score, replicate B":0.05,"z-score, replicate C":0.54}
{"gene":"LPIN1","pool no.":1,"mean z-score":-0.59,"z-score, replicate A":-0.57,"z-score, replicate B":-0.93,"z-score, replicate C":-0.28}
{"gene":"NLRP2","pool no.":1,"mean z-score":-0.29,"z-score, replicate A":-0.09,"z-score, replicate B":-0.27,"z-score, replicate C":-0.51}
{"gene":"RSU1","pool no.":1,"mean z-score":0.57,"z-score, replicate A":0.41,"z-score, replicate B":0.44,"z-score, replicate C":0.85}
{"gene":"ZCCHC9","pool no.":1,"mean z-score":-1.16,"z-score, replicate A":-1.2,"z-score, replicate B":-1.15,"z-score, replicate C":-1.13}
{"gene":"ZGPAT","pool no.":1,"mean z-score":-0.95,"z-score, replicate A":-1.32,"z-score, replicate B":-0.46,"z-score, replicate C":-1.09}
{"gene":"ARID4B","pool no.":1,"mean z-score":-1.31,"z-score, replicate A":-1.59,"z-score, replicate B":-1.34,"z-score, replicate C":-1}
{"gene":"GCA","pool no.":1,"mean z-score":0.75,"z-score, replicate A":0.73,"z-score, replicate B":0.46,"z-score, replicate C":1.06}
{"gene":"DRC7","pool no.":1,"mean z-score":-0.01,"z-score, replicate A":-0.11,"z-score, replicate B":-0.11,"z-score, replicate C":0.19}
{"gene":"NUDCD2","pool no.":1,"mean z-score":0.37,"z-score, replicate A":0,"z-score, replicate B":0.64,"z-score, replicate C":0.49}
{"gene":"LIPT2-AS1","pool no.":1,"mean z-score":0.79,"z-score, replicate A":0.86,"z-score, replicate B":0.61,"z-score, replicate C":0.9}
{"gene":"CWF19L1","pool no.":1,"mean z-score":-0.64,"z-score, replicate A":-0.99,"z-score, replicate B":-0.8,"z-score, replicate C":-0.13}
{"gene":"NTRK1","pool no.":1,"mean z-score":-0.07,"z-score, replicate A":-0.41,"z-score, replicate B":0.02,"z-score, replicate C":0.18}
{"gene":"ZNF560","pool no.":1,"mean z-score":-0.03,"z-score, replicate A":-0.32,"z-score, replicate B":0.49,"z-score, replicate C":-0.25}
{"gene":"LHFPL5","pool no.":1,"mean z-score":-0.59,"z-score, replicate A":-0.42,"z-score, replicate B":-0.76,"z-score, replicate C":-0.61}
{"gene":"SZT2","pool no.":1,"mean z-score":-0.86,"z-score, replicate A":-1.37,"z-score, replicate B":-0.6,"z-score, replicate C":-0.63}
{"gene":"SZT2","pool no.":2,"mean z-score":-0.99,"z-score, replicate A":-1.01,"z-score, replicate B":-1,"z-score, replicate C":-0.96}
{"gene":"SZT2","pool no.":3,"mean z-score":-1.88,"z-score, replicate A":-1.79,"z-score, replicate B":-2.23,"z-score, replicate C":-1.63}

Just “z-score, replicate B”, for 2 of the entries above:
NLRP2: -0.27
RSU1: 0.44
